Measurements taken from paper PMC12672077.

These sequences were tested against UL41 (VHS) (Pseudorabies virus (Suid alphaherpesvirus 1)) (UniProt G3G8Y5) (assay: EMSA). Details: 2 uM protein, 2 uM RNA; recombinant protein; protein details: His tag from pET-28a(+) (Ni-NTA purified).
CACCUGCCGGGAGCAUGCCU [Tyk2-3]: binds.
CAGGAAGAAGCCGCGGGGAC [Tyk2-1]: binds.
CCUGCUCCAGGAUGAAACCA [Tyk2-4]: binds.
CGAUGGGGAAACUGAGGCCC [Tyk2-2]: binds.
CUUAUUUUUCUUUCUUGGCC [Tyk2-5]: binds.
CUUGCUUUCUUCUUUCCUUUACU [STAT2-2]: binds.
GCGACAGCCUGGACAGCAAC [IRF9-1]: binds.
GGAUUCCCUGGAAACAUGCA [IRF9-3]: binds.
GGGCAGUUUCCCGGAGUGUG [IRF9-2]: binds.
GGGCGCGGGGACUGCAACCC [STAT2-4]: binds.
GGUAAUAAACUCAUGUUUUCUCU [Tyk2-6]: binds.
GGUGGCUGUUUCUUGUCUGUUA [STAT2-3]: binds.
GGUUGUGGACCUGGACAAAG [STAT2-5]: binds.
UCAGCCCUUUUCCCAGGAU [STAT2-1]: binds.
UUUAUAUUUUCCUCUUAGAU [IRF9-4]: binds.

Construct, isoform or probe ends are uncertain for at least one entry. At least one verdict rests on a figure or table, not on a statement of the authors.
